Measured values from several laboratories, pooled; numbers as filed in NIAID ChemDB.

Shared fields: growth or infection tests; organism: Hepatitis B virus; cells: 2.2.15; measure: EC50

ECn is the concentration giving n% inhibition of infection, replication or growth. Rows are shuffled and stem from different studies. a–b is a range or a potency band.

O=c1[nH]c(=O)n([C@@H]2O[C@@H](CO)C[C@H]2F)cc1F ; result: >10 µM
Nc1nc(Cl)nc2c1ncn2[C@@H]1C[C@@H](O)[C@H](CO)O1 ; result: >10 µM
Nc1ccn([C@@H]2C[C@@H](O)[C@H](CO)O2)c(=O)n1 ; result: 0.24 µM
Nc1ncnc2c1ncn2[C@@H]1CC[C@H](CO)O1 ; result: 5 µM
Nc1nc(Cl)nc2c1ncn2[C@@H]1C[C@@H](O)[C@H](CO)O1 ; result: >10 µM
Nc1nc(=O)n([C@@H]2C[C@@H](O)[C@H](CO)O2)cc1F ; result: 5 µM
Cc1cn([C@H]2O[C@@H](CO)C[C@H]2F)c(=O)[nH]c1=O ; result: >10 µM
Nc1ccn([C@@H]2C[C@@H](F)[C@H](CO)O2)c(=O)n1 ; result: 0.5 µM
Nc1nc(=O)n([C@@H]2C=C[C@H](CO)O2)cc1F ; result: <0.1 µM
Nc1ncnc2c1ncn2[C@@H]1C[C@@H](N)[C@H](CO)O1 ; result: >10 µM
C#C[C@@]1(CO)O[C@H](n2cnc3c(=O)[nH]c(N)nc32)C[C@H]1O ; result: >35 µM
Nc1ncnc2c1ncn2[C@@H]1C[C@@H](O)[C@H](CO)O1 ; result: 0.1 µM
Nc1nc2c(ncn2[C@H]2O[C@@H](CO)C[C@@H]2F)c(=O)[nH]1 ; result: >10 µM
Nc1ncnc2c1ncn2[C@@H]1C[C@@H](O)[C@H](CO)O1 ; result: 0.1–1.9 µM
Nc1nc(=O)n([C@H]2O[C@@H](CO)C[C@H]2F)cc1I ; result: >10 µM
Cc1cn([C@@H]2C[C@H](O)[C@H](CO)O2)c(=O)[nH]c1=O ; result: >10 µM
Nc1ncnc2c1ncn2[C@@H]1C=C[C@H](CO)O1 ; result: 0.8 µM
Nc1nc(=O)n([C@H]2O[C@@H](CO)C[C@H]2F)cc1Cl ; result: >50 µM
Cc1cn([C@@H]2CC[C@H](CO)O2)c(=O)[nH]c1=O ; result: >10 µM
Cc1cn([C@@H]2C[C@@H](N=[N+]=[N-])[C@H](CO)O2)c(=O)[nH]c1=O ; result: >10 µM
O=c1[nH]c(=O)n([C@H]2O[C@@H](CO)C[C@H]2F)cc1I ; result: >50 µM

2 of the rows above, restated:

Nc1nc(=O)n([C@@H]2C[C@@H](O)[C@H](CO)O2)cc1F ; result: 5 µM
Nc1ccn([C@@H]2C[C@@H](F)[C@H](CO)O2)c(=O)n1 ; result: 0.5 µM